The record followed here is article PMC5915575.

This data set deals with SigB. Nature of the data set: EMSA. To be noted: free probe nearly gone at 12 ug protein, 10 pmol DNA, EMSA: 10 mM Tris-HCl pH 7.5, 1 mM EDTA, 50 mM NaCl, 5% glycerol, 30 min room temperature, 0-18 ug protein, 5% native PAGE at 4 °C, recombinant protein, residues 1-255, protein details: C-terminal 6xHis (pET22b), probe letters rebuilt from the primers and the genome. In general terms: In EMSA bound probe runs differently from free probe, usually more slowly.

“CCAAAGTAAATTATAAGTTATACATCTCGTTTTTAAATGACAATTTATCCCCGTAAATATTATAAATAATCTTTTCAAATTCCACATAGATATAGAGACACTAATAAACCTCTTTGTCTCGATATGATAGTCTGCAACGATTCATGTTGTAGGCTTTTTAATTTTACAAATAAGGCTAAATATATAAGTTCTGGCACCTAAAATATAGAAAATACATAAAAGTAAGTATAGTTATTTTATTATAATTATTAAATTTTTATTAATTAATTGTAAAAATGTAGAATTATAATTAATTAACGTTTAATATTAAAATTAACTAAAAAGAAAGAGGTG (double strand) [nuc promoter EMSA probe]”: the binding result was “binds”.
